A mixed list of measured activities; the numbers were collected in NIAID ChemDB.

Common to all: growth or infection tests; organism: HIV-1; method: p24; endpoint: fold resistance

Blank or dashed fields: not listed here.

structure,changes,cells,strain,result
CCN1c2ncc(CCOc3ccc(C(C)CC(=O)O)c4ccccc34)cc2C(=O)N(C)c2cccnc21,RT-K103N Y181C,C8166,,1
Cc1cc(C)cc(S(=O)(=O)c2c(C(=O)/C=C/C(N)=O)[nH]c3ccc(Cl)cc23)c1,RT-K103N Y181C,C8166,IIIB,1666
CC1(C)Oc2ccc3ccc(=O)oc3c2[C@@H](OC(=O)C23CCC(C)(C(=O)O2)C3(C)C)[C@H]1OC(=O)C12CCC(C)(C(=O)O1)C2(C)C,PR-M46I L63P V82T I84V,MT-4,PRMDR,1
CCN1c2ncc(CCOc3cccc4c3CN(C)C(=O)N4C)cc2C(=O)N(C)c2cccnc21,RT-K103N Y181C,C8166,,>1
CCCCCCCCCCCCCCCCCCOCCOP(=O)(O)CO[C@H](CO)Cn1cnc2c(N)ncnc21,RT-K65R,MT-2,,7.5
CCN1c2ncc(CCOc3ccc(-c4cocn4)cc3C)cc2C(=O)N(C)c2cccnc21,RT-K103N Y181C,C8166,,1
O=C1Nc2ccc(Cl)c3c2[C@](C(F)(F)F)(C=C(c2ccccc2)O3)N1,RT-K103N,MT-4,,5.61
CCN1c2ncc(CCOc3ccc(CC(C)C(=O)O)c4ccccc34)cc2C(=O)N(C)c2ccc(Cl)nc21,RT-K103N Y181C,C8166,,1
CCN1c2ncc(CCOc3cccc4c3CNC(=O)N4C)cc2C(=O)N(C)c2cccnc21,RT-K103N Y181C,C8166,,1
COC(=O)[C@H](C)NP(=O)(OC[C@@H]1C=C[C@H](n2cc(C)c(=O)[nH]c2=O)O1)Oc1ccccc1Br,RT M41L L74V T215Y V106N,PBMC,RTMDR,261.5
Nc1nc(=O)n([C@H]2C=C[C@@H](CO)O2)cc1F,RT-T69SSS L210W T215Y,PBMC,XM-T69SSS,3.9
O=C1Nc2ccc(Cl)c(O)c2[C@@](C#Cc2ccccc2)(C(F)(F)F)N1,RT-K103N,MT-4,,4.41
CCN1c2ncc(CCOc3cccc4c3CNC(=O)N4CC(=O)O)cc2C(=O)N(C)c2cccnc21,RT-K103N Y181C,C8166,,1
CCN1c2ncc(CCOc3ccc(C(=O)O)c4c3CCC4)cc2C(=O)N(C)c2ccc(Cl)nc21,RT-K103N Y181C,C8166,,1
O=C(CSc1nnnn1-c1ccccc1C(F)F)Nc1ccccc1[N+](=O)[O-],1(RT-K103N Y181C),C8166,RT-K103N Y181C,>2
COC(=O)[C@H](C)NP(=O)(OC[C@@H]1C=C[C@H](n2cc(C)c(=O)[nH]c2=O)O1)Oc1ccc(OC)cc1,RT M41L L74V T215Y V106N,PBMC,RTMDR,253
CCN1c2ncc(CCOc3ccc(CC(=O)NN)c4ccccc34)cc2C(=O)N(C)c2cccnc21,RT-K103N Y181C,C8166,,1
O=C1Nc2ccc(Cl)cc2[C@@](/C=C/C2CC2)(C(F)(F)F)N1,RT-K103N,MT-4,,12.86
CCN1c2ncc(CCOc3cccc4c3CNC(=O)N4)cc2C(=O)N(C)c2cccnc21,RT-K103N Y181C,C8166,,1
Cc1cc(C)c(-n2nnnc2SCC(=O)Nc2ccc3c(c2)OCO3)c(C)c1,1(RT-K103N Y181C),C8166,RT-K103N Y181C,>2
CCN1c2ncc(CCOc3ccc(NC(=O)CCC(=O)O)cc3C)cc2C(=O)N(C)c2cccnc21,RT-K103N Y181C,C8166,,>1
CCN1c2ncc(CCOc3ccc(C(=O)O)c4ccccc34)cc2C(=O)N(C)c2ccc(F)nc21,RT-K103N Y181C,C8166,,1
CCN1c2nc(C(F)(F)F)ccc2NC(=O)c2cc(CCOc3cc[n+]([O-])c4ccccc34)cnc21,RT-V106A,C8166,,51.9
CCN1c2ncc(CCOc3ccc(-c4ccncc4)cc3C)cc2C(=O)N(C)c2cccnc21,RT-K103N Y181C,C8166,,1
C/C=C/CSc1cc(NC(=S)c2ccsc2C)ccc1Cl,RT-Y188C,CEM + CEM-SS,NL4-3,5
Cc1cc(C)cc(S(=O)(=O)c2c(C(=O)NCCO)[nH]c3ccc(Cl)cc23)c1,RT-K103R V179D P225H,C8166,EFV-resistant (RT K103R V179D P225H),100
CCN1c2ncc(CCOc3ccc(/C=C(\C)C(=O)O)c4ccccc34)cc2C(=O)Nc2c(C)cc(Cl)nc21,RT-K103N Y181C,C8166,,1–10
CCCCCCCCCCCCCCCCOCCCOP(=O)(O)CO[C@H](CO)Cn1cnc2c(N)ncnc21,RT-M184V,MT-2,,0.43
CCN1c2ncccc2NC(=O)c2cc(CCOc3ccc(-c4ccc[n+]([O-])c4)cc3C)cnc21,RT-K103N Y181C,C8166,,>1
COC(=O)[C@H](C)NP(=O)(OC[C@@H]1C=C[C@H](n2cc(C)c(=O)[nH]c2=O)O1)Oc1cc(Cl)ccc1Cl,RT-Y181C,PBMC,A17,37
CCN1c2ncc(CCOc3ccc(-c4cccc(CC(=O)O)c4)cc3C)cc2C(=O)N(C)c2cccnc21,RT-K103N Y181C,C8166,,1
CCN1c2ncc(CCOc3ccc(C(=O)O)c4c3CCN(C(=O)OC)C4)cc2C(=O)N(C)c2cccnc21,RT-K103N Y181C,C8166,,1
CCN1c2ncc(CCOc3ccc(-c4ccc(C(=O)O)cc4)c(Cl)c3)cc2C(=O)N(C)c2cccnc21,RT-K103N Y181C,C8166,,>1
CC(C)[C@H](NC(=O)OCc1ccccn1)C(=O)N[C@@H](Cc1ccccc1)[C@@H](O)C[C@H](Cc1ccccc1)NC(=O)OCc1cccnc1,PR-L10R M46I,MT-4,NL4-3,1
CCN1c2ncc(CCOc3ccc(-c4cc(C(=O)O)c(C)o4)cc3)cc2C(=O)N(C)c2cccnc21,RT-K103N Y181C,C8166,,>1
COc1c(Cl)ccc2c1[C@@](C#Cc1cccnc1)(C(F)(F)F)NC(=O)N2,RT-L100I K103N,MT-4,,357.9

The last 3 rows once more:

structure	changes	cells	strain	result
CC(C)[C@H](NC(=O)OCc1ccccn1)C(=O)N[C@@H](Cc1ccccc1)[C@@H](O)C[C@H](Cc1ccccc1)NC(=O)OCc1cccnc1	PR-L10R M46I	MT-4	NL4-3	1
CCN1c2ncc(CCOc3ccc(-c4cc(C(=O)O)c(C)o4)cc3)cc2C(=O)N(C)c2cccnc21	RT-K103N Y181C	C8166		>1
COc1c(Cl)ccc2c1[C@@](C#Cc1cccnc1)(C(F)(F)F)NC(=O)N2	RT-L100I K103N	MT-4		357.9

a–b is a range or a potency band. Rows are shuffled and stem from different studies. Fold resistance: result on the changed form divided by that on wild type.